Results as given in ChEMBL document CHEMBL1124519 (J Med Chem, 1989).

Experiment: Half-life period obtained from linear regression of metabolite concentration in aqueous buffer of pH 7.4 at 37 degrees Celsius in 100 mM HEPES buffer.

**Q.** Which T1/2 does the source give for `NP(=O)(O)N(CCCl)CCCl` here?
**A.** 18 min
